In ChEMBL document CHEMBL4402583, “Rational Substitution of ε-Lysine for α-Lysine Enhances the Cell and Membrane Selectivity of Pore-Forming Melittin” (J Med Chem, 2020):

Assay: Hemolytic activity against human erythrocytes assessed as hemoglobin release incubated for 1 hr
Format: ADME, cell-based, Erythrocyte
Conditions: read-out: HD50

## CC[C@H](C)[C@H](NC(=O)CN)C(=O)NCC(=O)N[C@@H](C)C(=O)N[C@H](C(=O)N[C@@H](CC(C)C)C(=O)N[C@@H](CCCCN)C(=O)N[C@H](C(=O)N[C@@H](CC(C)C)C(=O)N[C@H](C(=O)N[C@H](C(=O)NCC(=O)N[C@@H](CC(C)C)C(=O)N1CCC[C@H]1C(=O)N[C@@H](C)C(=O)N[C@@H](CC(C)C)C(=O)N[C@H](C(=O)N[C@@H](CO)C(=O)N[C@@H](Cc1c[nH]c2ccccc12)C(=O)N[C@H](C(=O)N[C@@H](CCCCN)C(=O)N[C@@H](CCCNC(=N)N)C(=O)N[C@@H](CCCCN)C(=O)N[C@@H](CCCNC(=N)N)C(=O)N[C@@H](CCC(N)=O)C(=O)N[C@@H](CCC(N)=O)C(N)=O)[C@@H](C)CC)[C@@H](C)CC)[C@@H](C)O)[C@@H](C)O)C(C)C)C(C)C [MELITTIN]
  HC50 at 1 h: 1.95 µg/mL
